# Potato spindle tuber viroid, loop 15: variant abundance in plants

Data from the supplement of Wu et al. 2024, doi:10.1371/journal.ppat.1012142.

PSTVd intermediate strain, loop 15: wild type GGAAACCGCUACUAC, pool pattern GGAAACCGNNNNNNC; upper and lower strand joined, each 5' to 3', the first 7 letters being the upper strand, closing pairs included.

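Three N. benthamiana plants were inoculated with the whole mutant pool. Samples came from the inoculated region at 5 days, the leaf margin at 10 and upper systemic leaves at 12.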

Values are reads per thousand in the sample; higher means more abundant, 0 means not found. Each value is the mean of three plants. "Pool" is the share in the plasmid pool used as inoculum, on the same scale. The inoculated region was read from the minus strand, the other sites from the plus strand. IR is the inoculated region, LM the leaf margin, Sys the systemic leaves. Sequences that differ at fixed positions probably stem from PCR or sequencing errors, and defective variants can be carried along by functional ones.

With GGAAACCGGGUAUGC (pool 0.160) the assay gave IR 0.125; LM 0.0262; Sys 0.00537. For GGAAACCGGCGGGAC (pool 0.192) the result was IR 0.269; LM 0.00668; Sys 0. GGAAACCGACGGCGC (pool 0.176) gave IR 0.0758; LM 0.0108; Sys 0. GGAAACCGUAUCAUC (pool 0.160) gave IR 0.0703; LM 0.00668; Sys 0. For GGAAACCGGCAACUC (pool 0.256) the result was IR 0.128; LM 0.0262; Sys 0.00537. With GGAAACCGGCAAUAC (pool 0.256) the assay gave IR 0.408; LM 0.102; Sys 0.0996. GGAAACCGCAACUAC (pool 0.224) read IR 0.595; LM 0.166; Sys 0.117. GGAAACCGCGCAAGC (pool 0.208) gave IR 0.127; LM 0.0108; Sys 0.00537.

GGAAACCGUAAGCCC (pool 0.272) read IR 0.106; LM 0.0356; Sys 0. GGAAACCGUUUUAUC (pool 0.272) gave IR 0.0848; LM 0.0141; Sys 0.00537. With GGAAACCGACGCGCC (pool 0.240) the assay gave IR 0.119; LM 0.00539; Sys 0. For GGAAACCGAUGCUGC (pool 0.240) the result was IR 0.111; LM 0; Sys 0. GGAAACCGCUUGGAC (pool 0.256) read IR 0.0914; LM 0.0141; Sys 0. GGAAACCGGUAGCAC (pool 0.256) read IR 0.368; LM 0.145; Sys 0.0898. GGAAACCGCCUCCUC (pool 0.240) read IR 0.0742; LM 0; Sys 0. With GGAAACCGCAUAAUC (pool 0.240) the assay gave IR 0.182; LM 0.00668; Sys 0.

GGAAACCGAGGAUGC (pool 0.320) gave IR 0.0560; LM 0; Sys 0. With GGAAACCGAAGGUCC (pool 0.160) the assay gave IR 0.0848; LM 0.0141; Sys 0. GGAAACCGGUGACGC (pool 0.176) read IR 0.0732; LM 0; Sys 0. GGAAACCGCCCGCGC (pool 0.224) gave IR 0.129; LM 0.0254; Sys 0. With GGAAACCGCGGGGCC (pool 0.320) the assay gave IR 0.118; LM 0.0175; Sys 0. GGAAACCGACAGCCC (pool 0.192) gave IR 0.0662; LM 0.0175; Sys 0. With GGAAACCGCAUCACC (pool 0.224) the assay gave IR 0.135; LM 0.00742; Sys 0. GGAAACCGUGGCCUC (pool 0.240) gave IR 0.0813; LM 0.0377; Sys 0.00537.

The last 2 entries again:

| sequence | pool | IR | LM | Sys |
|---|---|---|---|---|
| GGAAACCGCAUCACC | 0.224 | 0.135 | 0.00742 | 0 |
| GGAAACCGUGGCCUC | 0.240 | 0.0813 | 0.0377 | 0.00537 |

Wild type was 33.9 per thousand in the pool and the most common sequence in every sample (inoculated region 202, 200, 159; leaf margin 724, 746, 710; systemic leaves 856, 883, 880). With 43,870-66,106 reads a sample, very low values are single reads.